Measured values from several laboratories, pooled; numbers as filed in NIAID ChemDB.

Common to all: toxicity to cultured cells; cells: CEM; measure: CC50

Conditions beyond the fields shown may differ between rows. Blank or dashed fields: not listed here. CCn: concentration that lowers growth or viability of the cells by n%.

smiles	method	value
CCO[C@]12CS(=O)(=O)O[C@@]13[C@@H](CN2)O[C@@H](n1ccc(=O)[nH]c1=O)[C@@H]3O[Si](C)(C)C(C)(C)C		111 µM
Cc1ccc(Cl)c(C(C)S(=O)c2cccc[n+]2[O-])c1	cell count	0.19 µg/mL
Cc1cc(S(=O)(=O)n2cccc2)c(SCC(=O)c2ccc(Br)cc2)cc1Cl	XTT	25.3 µM
C/C(=N\NC(=O)CN1c2c(-c3ccccc3)n[nH]c2-c2ccccc2S1(=O)=O)c1cc(C)sc1C	MTS	17.6 µM
C=C(C)[C@@H]1CC[C@]2(C(=O)NCCCC(=O)NCCCCCC(=O)O)CC[C@]3(C)[C@H](CC[C@@H]4[C@@]5(C)CC[C@H](O)C(C)(C)[C@@H]5CC[C@]43C)[C@@H]12		>3 µM
Cc1ccc[n+]([O-])c1S(=O)(=O)Cc1ccccc1	cell count	28 µg/mL
O=C(O)CCCCCCNC(=O)c1ccccc1SSc1ccccc1C(=O)NCCCCCCC(=O)O		44 µM
CC[C@H](C)[C@H](NC(=O)c1ccccc1SSc1ccccc1C(=O)N[C@H](C(=O)O)[C@@H](C)CC)C(=O)O		110 µM
CC(Cl)(c1ccccc1)S(=O)(=O)c1cccc[n+]1[O-]	cell count	10 µg/mL
C=C(C)[C@@H]1CC[C@]2(C(=O)NCCC(=O)O)CC[C@]3(C)[C@H](CC[C@@H]4[C@@]5(C)CC[C@H](O)C(C)(C)[C@@H]5CC[C@]43C)[C@@H]12		>3 µM
NC(=O)c1ccc(NC(=O)c2ccccc2SSc2ccccc2C(=O)Nc2ccc(C(N)=O)cc2)cc1		>100 µM
Cc1ccccc1CS(=O)(=O)c1cccc[n+]1[O-]	cell count	23 µg/mL
C=C(C)[C@@H]1CC[C@]2(C(=O)NCCCCCCCCCC(=O)O)CC[C@]3(C)[C@H](CC[C@@H]4[C@@]5(C)CC[C@H](O)C(C)(C)[C@@H]5CC[C@]43C)[C@@H]12		>3 µM
Cc1cn([C@@H]2O[C@@H]3CN[C@@]4(O)CS(=O)(=O)O[C@@]34[C@H]2O[Si](C)(C)C(C)(C)C)c(=O)[nH]c1=O		>250 µM
NS(=O)(=O)c1ccc(NC(=O)c2ccccc2Sc2ccccc2C(=O)Nc2ccc(S(N)(=O)=O)cc2)cc1		>100 µM
C=C(C)[C@@H]1CC[C@]2(C(=O)NCCCCCCCC(=O)N[C@@H](CC(C)C)[C@H](O)CC(=O)O)CC[C@]3(C)[C@H](CC[C@@H]4[C@@]5(C)CC[C@H](O)C(C)(C)[C@@H]5CC[C@]43C)[C@@H]12		>3 µM
Cc1cc(S(=O)(=O)n2cccc2)c(SCC(=O)n2cccc2)cc1Cl	XTT	86.5 µM
CCC(c1cc(C)ccc1C)S(=O)(=O)c1cccc[n+]1[O-]	cell count	80 µg/mL
NS(=O)(=O)c1ccc(NC(=O)c2ccccc2SSc2ccccc2C(=O)Nc2ccc(S(N)(=O)=O)cc2)cc1		>100 µM
C/C(=N\NC(=O)CN1c2c(-c3ccccc3)n[nH]c2-c2ccccc2S1(=O)=O)c1ccncc1	MTS	34.5 µM
C=C(C)[C@@H]1CC[C@]2(C(=O)NCCCCCCCC(=O)N[C@@H](CC(C)C)[C@@H](O)CC(=O)O)CC[C@]3(C)[C@H](CC[C@@H]4[C@@]5(C)CC[C@H](O)C(C)(C)[C@@H]5CC[C@]43C)[C@@H]12		>3 µM
O=C(Nc1nccs1)c1ccccc1SSc1ccccc1C(=O)Nc1nccs1		18 µM
Cc1ccc(C)c(CS(=O)(=O)c2c(O)ccc[n+]2[O-])c1	cell count	>100 µg/mL
Cc1cn([C@@H]2O[C@@H]3CN[C@@]4(O[Si](C)(C)C(C)(C)C)CS(=O)(=O)O[C@@]34[C@H]2O[Si](C)(C)C(C)(C)C)c(=O)[nH]c1=O		7.04 µM
Cc1cccc(CS(=O)(=O)c2cccc[n+]2[O-])c1	cell count	23 µg/mL
C=C(C)[C@@H]1CC[C@]2(C(=O)NCCCCCCCC(=O)NC(C)CC(=O)O)CC[C@]3(C)[C@H](CC[C@@H]4[C@@]5(C)CC[C@H](O)C(C)(C)[C@@H]5CC[C@]43C)[C@@H]12		>3 µM
Cc1cn([C@@H]2O[C@@H]3CN[C@@]4(OCC5CCOC5)CS(=O)(=O)O[C@@]34[C@H]2O)c(=O)[nH]c1=O		>250 µM
O=S(=O)(Cc1ccccc1I)c1cccc[n+]1[O-]	cell count	25 µg/mL
CCO[C@]12CS(=O)(=O)O[C@@]13[C@@H](CN2)O[C@@H](n1cc(C)c(=O)[nH]c1=O)[C@@H]3OC(C)=O		>250 µM
Cc1cc(S(=O)(=O)NC2=NCCN2)c(SCC(N)=O)cc1Cl	XTT	>200 µM
CCCCO[C@]12CS(=O)(=O)O[C@@]13C(CN2)O[C@@H](n1cc(C)c(=O)[nH]c1=O)[C@@H]3O[Si](C)(C)C(C)(C)C		34.8 µM
COC(=O)C(c1ccccc1C)S(=O)c1cccc[n+]1[O-]	cell count	52 µg/mL
CC(C)C[C@H](NC(=O)c1ccccc1SSc1ccccc1C(=O)N[C@@H](CC(C)C)C(=O)O)C(=O)O		130 µM
CCCCCCCCCCCC(Sc1cccc[n+]1[O-])c1cc(C)ccc1C	cell count	25 µg/mL
C=C(C)[C@@H]1CC[C@]2(C(=O)NCCCCCCC(=O)NCCC(=O)O)CC[C@]3(C)[C@H](CC[C@@H]4[C@@]5(C)CC[C@H](O)C(C)(C)[C@@H]5CC[C@]43C)[C@@H]12		>3 µM
Cc1ccc(C)c(C(Cl)S(=O)(=O)c2cccc(C)[n+]2[O-])c1	cell count	≥100 µg/mL
O=C(NCc1ccccc1)c1ccccc1SSc1ccccc1C(=O)NCc1ccccc1		10 µM
N#CC(c1ccc(F)cc1)S(=O)c1cccc[n+]1[O-]	cell count	0.72 µg/mL
NS(=O)(=O)c1ccc(CNC(=O)c2ccccc2SSc2ccccc2C(=O)NCc2ccc(S(N)(=O)=O)cc2)cc1		30 µM
O=C(O)C[C@H](CC1CC1)NC(=O)c1ccccc1SSc1ccccc1C(=O)N[C@H](CC(=O)O)CC1CC1		>100 µM
Cc1ccc(C)c(CS(=O)c2ncccc2O)c1	cell count	>100 µg/mL
C=C(C)[C@@H]1CC[C@]2(C(=O)NCCCCCC(=O)O)CC[C@]3(C)[C@H](CC[C@@H]4[C@@]5(C)CC[C@H](O)C(C)(C)[C@@H]5CC[C@]43C)[C@@H]12		>3 µM
Cc1ccc(C)c(C(Cl)S(=O)(=O)c2c(C)ccc[n+]2[O-])c1	cell count	>100 µg/mL
C/C(=N\NC(=O)CN1c2c(-c3ccccc3)n[nH]c2-c2ccccc2S1(=O)=O)c1cc(C)oc1C	MTS	9.9 µM
CSCC[C@H](NC(=O)c1ccccc1SSc1ccccc1C(=O)N[C@@H](CCSC)C(=O)O)C(=O)O		>100 µM
N#Cc1ccccc1CS(=O)(=O)c1cccc[n+]1[O-]	cell count	15 µg/mL
O=C(c1ccccc1SSc1ccccc1C(=O)N1CCSCC1)N1CCSCC1		42 µM
COc1cccnc1SCc1cc(C)ccc1C	cell count	78 µg/mL
CCOC(=O)c1ccc(NC(=O)c2ccccc2SSc2ccccc2C(=O)Nc2ccc(C(=O)OCC)cc2)cc1		64 µM
Cc1ccc(C)c(CS(=O)c2c(C)ccc[n+]2[O-])c1	cell count	42 µg/mL
C/C(=N\NC(=O)CN1c2c(-c3ccccc3)n[nH]c2-c2ccccc2S1(=O)=O)c1cc2ccccc2oc1=O	MTS	27.8 µM
O=C(O)CCCCNC(=O)c1ccccc1SSc1ccccc1C(=O)NCCCCC(=O)O		64 µM
O=S(=O)(Cc1ccc(Cl)cc1Cl)c1cccc[n+]1[O-]	cell count	6.2 µg/mL
Cc1cc(S(=O)(=O)N2CCNC2=O)c(SCC(N)=O)cc1Cl	XTT	>200 µM

A second listing of 8 rows from above:

| smiles | method | value |
|---|---|---|
| NS(=O)(=O)c1ccc(CNC(=O)c2ccccc2SSc2ccccc2C(=O)NCc2ccc(S(N)(=O)=O)cc2)cc1 |  | 30 µM |
| C/C(=N\NC(=O)CN1c2c(-c3ccccc3)n[nH]c2-c2ccccc2S1(=O)=O)c1cc(C)oc1C | MTS | 9.9 µM |
| Cc1cc(S(=O)(=O)n2cccc2)c(SCC(=O)c2ccc(Br)cc2)cc1Cl | XTT | 25.3 µM |
| O=C(O)CCCCCCNC(=O)c1ccccc1SSc1ccccc1C(=O)NCCCCCCC(=O)O |  | 44 µM |
| CC(C)C[C@H](NC(=O)c1ccccc1SSc1ccccc1C(=O)N[C@@H](CC(C)C)C(=O)O)C(=O)O |  | 130 µM |
| CC[C@H](C)[C@H](NC(=O)c1ccccc1SSc1ccccc1C(=O)N[C@H](C(=O)O)[C@@H](C)CC)C(=O)O |  | 110 µM |
| Cc1ccc(C)c(CS(=O)c2c(C)ccc[n+]2[O-])c1 | cell count | 42 µg/mL |
| CSCC[C@H](NC(=O)c1ccccc1SSc1ccccc1C(=O)N[C@@H](CCSC)C(=O)O)C(=O)O |  | >100 µM |